These results are taken from article PMC10870823 (mBio, 2023).

The target of test [1] is SARS-CoV-2 Spike B.135 (Beta), lacking the final 21 amino acids, on rcVSV-S virions (SARS-CoV-2). Briefly: cell-based or functional assay.
Test [2] concerns the target SARS-CoV-2 Spike B.617.2 (Delta), lacking the final 21 amino acids, on rcVSV-S virions (SARS-CoV-2). Kind of test: cell-based or functional assay.

B1: FG-10A3 (Family G clone 10A3) human anti-SARS-CoV-2 Spike RBD monoclonal antibody (antibody, V domains shown)
VH: QVQLVESGGGVVQPGRSLRLSCAASGFTFSSYGMNWVRQAPGKGLEWVAIIWYDGNNTYYVDSVKGRFTISRDNSKNTLYLQMNSLRAEDTAVYYCARKDGSKTYYGYYFDYWGQGTLVTVSS
VL: DIQMTQSPSSLSASVGDRVTITCRASQSIHSFLNWYQQKPGKPPNLLIYAASSLQSGLPSRFSGSGSGTDFTLTISSLQPEDFATYYCQQSYITPPTFGHGTKVEIK
notes: also called Family G (FG)-10A3
On to B1, for which the “EC50 of neutralisation of rcVSV-S Beta infection of Vero-ACE2/TMPRSS2 cells” value in test [1] amounted to 0.011 µg/mL. Further, the “EC50 of neutralisation of rcVSV-S Delta infection of Vero-ACE2/TMPRSS2 cells” value in test [2] came out at 0.00931 µg/mL.
